This is an account of results in PubChem BioAssay AID1033 (Sanford-Burnham Center for Chemical Genomics, 2008).

Amino acid sequences for entries named in this document (tags omitted).
UniProt P0A6Y8, whole entry: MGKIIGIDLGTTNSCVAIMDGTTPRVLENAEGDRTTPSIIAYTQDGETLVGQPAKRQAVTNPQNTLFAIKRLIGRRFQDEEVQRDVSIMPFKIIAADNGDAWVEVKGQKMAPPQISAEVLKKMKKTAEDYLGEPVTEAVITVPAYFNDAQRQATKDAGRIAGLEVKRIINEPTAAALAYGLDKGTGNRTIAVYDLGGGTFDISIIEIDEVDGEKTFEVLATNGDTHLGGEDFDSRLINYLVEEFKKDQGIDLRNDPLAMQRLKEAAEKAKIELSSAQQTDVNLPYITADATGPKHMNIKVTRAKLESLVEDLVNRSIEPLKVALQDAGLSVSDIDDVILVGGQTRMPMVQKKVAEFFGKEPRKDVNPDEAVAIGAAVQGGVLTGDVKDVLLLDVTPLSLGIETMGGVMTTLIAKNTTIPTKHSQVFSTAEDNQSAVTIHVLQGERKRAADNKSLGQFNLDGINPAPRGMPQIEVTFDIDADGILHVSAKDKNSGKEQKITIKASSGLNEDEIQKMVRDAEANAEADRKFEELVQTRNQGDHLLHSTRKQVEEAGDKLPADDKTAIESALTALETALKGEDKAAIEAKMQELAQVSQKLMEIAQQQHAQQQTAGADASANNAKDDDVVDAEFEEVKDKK

The test concerns the target Chaperone protein DnaK (Escherichia coli (strain K12)) (UniProt P0A6Y8). Put plainly: E. coli DnaK SBD ligand binding – biophysical, NMR, chaperone (AID 1033). To be noted: Purified DnaK SBD.

Active and inactive are the calls of the source. The rule behind the calls is not given here.

By Kd is commonly meant the constant that tells how readily two partners part at equilibrium. Take `OC1CN2CCC1CC2` (configuration not stated): the Kd was inactive: > 4 mM. For `CP(N)(=O)Oc1ccc(Cl)cc1` (configuration not stated) the value was inactive: > 4 mM.
